System: HEK 293FT cells
Assay: Cell toxicity assay (MTT)
Type: cell-based, human
Details: 0.1 μM MTX vs no MTX

Row | Compound | increase in the effective concentration
1 | COc1cc(C=C2C(=O)NC(=O)NC2=O)cc(Cl)c1OC [4F] | 1.5–2 fold
2 | COc1ccc(C=C2C(=O)NC(=O)NC2=O)c(OC)c1 [4B] | 1.5–2 fold

Source: PMC8587785, “A New Class of Uracil–DNA Glycosylase Inhibitors Active against Human and Vaccinia Virus Enzyme” (Molecules, 2021)
